In ChEMBL document CHEMBL1145474, “Selective phosphorylation of antiviral drugs by vaccinia virus thymidine kinase” (Antimicrob Agents Chemother, 2007):

Species on record: Homo sapiens

SMILES: N#CC1=C(N)OC2=C(C(=O)CCC2)C1c1cn([C@H]2C[C@H](O)[C@@H](CO)O2)c(=O)[nH]c1=O (some centres not stated)
- Km: > 200 µM

SMILES: Nc1ccn(C[C@@H](CO)OCP(=O)(O)O)c(=O)n1
- Km: > 159 µM
